Data reported in article doi:10.1101/2024.08.23.608024.
A weaker result is weaker than the reference pair of the same experiment. For some assays here: Tags and fusion partners may be left off the protein sequences shown. For some assays here: Construct, isoform or probe ends are uncertain for at least one entry. For some assays here: At least one verdict was read from the data and is not stated in words by the source.

Tests used:
[1] = molecular target: T1, GbpC (glucan-binding protein C), extracellular fragment (Streptococcus mutans) (UniProt Q8DTF1); assay: AlphaScreen; settings: residues 111-522
T1 sequence (looked up): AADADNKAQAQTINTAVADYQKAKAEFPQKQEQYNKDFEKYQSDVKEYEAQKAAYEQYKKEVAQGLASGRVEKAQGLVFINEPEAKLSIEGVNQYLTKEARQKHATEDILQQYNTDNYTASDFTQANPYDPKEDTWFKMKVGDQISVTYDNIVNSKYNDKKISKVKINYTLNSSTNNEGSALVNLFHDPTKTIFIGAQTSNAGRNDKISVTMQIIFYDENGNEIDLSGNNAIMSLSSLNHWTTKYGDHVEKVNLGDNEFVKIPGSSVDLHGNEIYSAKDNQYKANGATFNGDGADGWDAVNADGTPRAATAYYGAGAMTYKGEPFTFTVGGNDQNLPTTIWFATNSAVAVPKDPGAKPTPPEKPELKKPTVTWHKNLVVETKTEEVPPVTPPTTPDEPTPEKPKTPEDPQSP

[2] = system: AgI/II (antigen I/II) fragment; assay: AlphaScreen

Row | Sequence | binding result [1] | binding result [2]
1 | AGATACCAATACGCTGCCATACCCACCCATCACCGAGTCGACACTCACCTAACAGCCGGCCACTGGTAACGACATC [A58] | binds more weakly | –
2 | AGATACCAATACGCTGCCCCGCCGGTCCCGAGCTACAACACTTTACGCCCCCCTCCCCGCCACTGGTAACGACATC [A96 (flanked)] | – | binds more weakly
3 | AGATACCAATACGCTGCCTAGCCCCTACCCTGTTGCTCCCCCTCGCCCCTCTCACCCCGCCACTGGTAACGACATC [A39 (flanked)] | – | binds more weakly
4 | AGATACCAATACGCTGCCTTCTTGAAAAAGGGTAGCGCAGGCCGCTAATGACATAACTGCCACTGGTAACGACATC [A30] | – | binds more weakly
5 | AGATACCAATACGCTGCCTTTCCAATTACGCCATGCATCACCCCTAAAATCTGAATACGCCACTGGTAACGACATC [A65] | – | binds more weakly
